Results of unrelated studies side by side (data: NIAID ChemDB).

Shared fields: tests in culture; organism: Candida albicans; endpoint: MIC80

Lines come from different laboratories, so protocols vary.

SMILES,strain,value
COc1cc2c(=O)c3ccccc3oc2cc1O,ATCC 663.90,31 µg/mL
CCCCN(Cc1cn(Cc2ccc([N+](=O)[O-])cc2)nn1)CC(O)(Cn1cncn1)c1ccc(F)cc1F,Y0109,4 µg/mL
OC(CN1CCN(c2ccc(OCc3ccncc3)cc2)CC1)(Cn1cncn1)c1ccc(F)cc1F,304362,2 µg/mL
CCCCN(Cc1cn(Cc2cccc(Cl)c2)nn1)CC(O)(Cn1cncn1)c1ccc(F)cc1F,SC5314,<0.125 µg/mL
CC(C)=CCCCCCNC1NCCC2c3ccccc3CCN12,NFI0124,16 µg/mL
C[C@H]1[C@H](O)[C@@H](C)/C=C/C=C/C=C/C=C/C=C/C=C/C=C/[C@H](O[C@@H]2O[C@H](C)[C@@H](O)[C@H](N)[C@@H]2O)C[C@@H]2O[C@](O)(C[C@@H](O)C[C@@H](O)CC[C@H](O)[C@@H](O)C[C@@H](O)CC(=O)O[C@H]1C)C[C@H](O)[C@H]2C(=O)O,TIMM1768 (azole-susceptible),0.13 µg/mL
C=C(CCCCCNC1NCCC2c3ccccc3CCN12)C(C)C,NFI0124,16 µg/mL
COc1c2c(c3oc4c(O)cccc4c(=O)c3c1O)C=CC(C)(C)O2,ATCC 663.90,>250 µg/mL
C=C(CCCCCNC1NCCC2c3ccc(OC)cc3CCN12)C(C)C,NFI0124,16 µg/mL
CCCCN(Cc1cn(Cc2ccc(F)cc2)nn1)CC(O)(Cn1cncn1)c1ccc(F)cc1F,SC5314,<0.125 µg/mL
C[C@@H](c1ncncc1F)[C@](O)(Cn1cncn1)c1ccc(F)cc1F,2038 (FLU-R),0.5 µg/mL
CCCCN(Cc1cn(Cc2ccccc2Br)nn1)CC(O)(Cn1cncn1)c1ccc(F)cc1F,SC5314,4 µg/mL
CC(C)CCCCCCNC1NCCC2c3ccccc3CCN12,NFI0124,4 µg/mL
CCCCN(Cc1cn(Cc2ccc(Cl)cc2)nn1)CC(O)(Cn1cncn1)c1ccc(F)cc1F,Y0109,16 µg/mL
COc1c(O)cc2oc3c(O)cccc3c(=O)c2c1O,ATCC 663.90,62 µg/mL

The first 2 rows once more:

SMILES | strain | value
COc1cc2c(=O)c3ccccc3oc2cc1O | ATCC 663.90 | 31 µg/mL
CCCCN(Cc1cn(Cc2ccc([N+](=O)[O-])cc2)nn1)CC(O)(Cn1cncn1)c1ccc(F)cc1F | Y0109 | 4 µg/mL

A number after MIC or MFC names an inhibition level or a share of isolates.